Measured values from several laboratories, pooled; numbers as filed in NIAID ChemDB.

ICn is the concentration giving n% inhibition. MIC50, MIC90 and the like: level of inhibition, or share of isolates inhibited. Neighbouring rows are from separate reports. Percent inhibition refers to the dose given; in toxicity tests it is the harm to the cells. ECn is the concentration giving n% inhibition of infection, replication or growth. An empty or dashed field is not shown.

| smiles | species | target | test | measure | method | dose | cells | strain | value |
|---|---|---|---|---|---|---|---|---|---|
| Oc1ccc(O)c(C=Nc2ccccc2O)c1 | Cryptococcus neoformans |  | culture | MIC | broth dilution |  |  | C-3-1 | 5.7 µg/mL |
| COc1ccccc1N1CCN(c2cncc(-c3ccc(C(C)(C)C)cc3)n2)CC1 | Cytomegalovirus | UL97 kinase | target | IC50 |  |  |  |  | <100 µM |
| Nc1ccc2cc(S(=O)(=O)O)cc(S(=O)(=O)O)c2c1 | Herpes simplex virus |  | culture | inhibition | cytopathic effect | 5 µg/mL | Human amnion AV3 cells |  | 0% |
| Oc1ccccc1N=Cc1ccccc1 | Cryptococcus neoformans |  | culture | MIC | broth dilution |  |  | C-3-1 | 2 µg/mL |
| COc1ccc(N2CCN(c3cncc(-c4cccc(OC)c4)n3)CC2)cc1 | Cytomegalovirus | UL97 kinase | target | inhibition |  | 10 µM |  |  | >15% |
| Nc1ccc2cc([N+](=O)[O-])cc(S(=O)(=O)[O-])c2c1 | Herpes simplex virus |  | culture | inhibition | cytopathic effect | 50 µg/mL | Human amnion AV3 cells |  | 0% |
| CSc1ccc(-c2cncc(N3CCN(c4ccc(C(C)=O)cc4)CC3)n2)cc1 | Cytomegalovirus | UL97 kinase | target | IC50 |  |  |  |  | <1 µM |
| Oc1ccccc1N=Cc1cccc(O)c1O | Cryptococcus neoformans |  | culture | MIC | broth dilution |  |  | 27JF | 5.7 µg/mL |
| O=C(Nc1c(S(=O)(=O)[O-])cc2cc(S(=O)(=O)[O-])cc(O)c2c1O)c1ccccc1 | Herpes simplex virus |  | culture | inhibition | cytopathic effect | 50 µg/mL | Human amnion AV3 cells |  | 0% |
| CCOC(=O)c1ccc(OCCC2CCN(c3ccc(C)nn3)CC2)cc1 | Rhinovirus |  | culture | EC50 | neutral red |  | KB | SF-1662 (ICAM-1 receptor group 92) | 0.003 µM |
| COc1ccc(N2CCN(c3cncc(-c4ccc(CO)cc4)n3)CC2)cc1OC | Cytomegalovirus | UL97 kinase | target | inhibition |  | 1 µM |  |  | <50% |
| CCOC(=O)c1c(C)nc(NCCCCNc2ccnc3cc(Cl)ccc23)nc1-c1ccccc1[N+](=O)[O-] | Cryptococcus neoformans |  | culture | MIC99 |  |  |  | ATCC 62066 | 8 µg/mL |
| O=C(Nc1ccc2c(O)c(N=Nc3ccc(N=Nc4ccc(S(=O)(=O)O)cc4)cc3)c(S(=O)(=O)O)cc2c1)c1ccccc1 | Rhinovirus |  | culture | inhibition | cytopathic effect | 50 µg/mL | Human embryonic lung cells |  | 100% |
| COc1ccccc1N1CCN(c2cncc(-c3ccccc3C(C)=O)n2)CC1 | Cytomegalovirus | UL97 kinase | target | IC50 |  |  |  |  | <100 µM |
| CCOC(=O)c1c(C)nc(OCCCNc2ccnc3cc(Cl)ccc23)nc1-c1ccccc1 | Cryptococcus gattii |  | culture | MIC99 |  |  |  | 29/10893 | 4 µg/mL |
| NCCS(=O)(=O)O | Herpes simplex virus |  | culture | inhibition | cytopathic effect | 50 µg/mL | Human amnion AV3 cells |  | 0% |
| COc1ccc(-c2cncc(N3CCC(c4ccccc4)CC3)n2)cc1OC | Cytomegalovirus | UL97 kinase | target | inhibition |  | 1 µM |  |  | <50% |
| Oc1ccccc1C=Nc1ccccc1O | Cryptococcus gattii |  | culture | MIC99 |  |  |  | ATCC 32608 | 5.7 µg/mL |
| CCC(CC)[C@H](NC(C)=O)[C@@H]1[C@H](O)[C@@H](C(=O)O)C[C@H]1N=C(N)N | Influenza A virus |  | culture | EC50 | visual reading |  | MDCK | H1N1 A/PR/8/34 | 0.21 µM |
| Nc1ccccc1S(=O)(=O)O | Herpes simplex virus |  | culture | inhibition | cytopathic effect | 5 µg/mL | Human amnion AV3 cells |  | 20% |
| Cc1nc(NCCCCNc2ccnc3cc(Cl)ccc23)nc(-c2ccccc2[N+](=O)[O-])c1C(=O)OC(C)C | Cryptococcus neoformans |  | culture | MIC99 |  |  |  | WP | 5.7 µg/mL |
| O=S(=O)(O)c1cc(O)c2c(O)c(N=Nc3ccccc3)c(S(=O)(=O)O)cc2c1 | Adenovirus |  | culture | inhibition | cytopathic effect | 10 µg/mL | Human amnion AV3 cells | TYPE 3 | 5% |
| Fc1ccc(N2CCCCC2)c(NC(=S)c2ccncc2)c1 |  | MRCKalpha | host protein | inhibition | kinase activity | 10 µM |  |  | 2% |
| O=S(=O)([O-])c1ccc(O)c2ccccc12 | Herpes simplex virus |  | culture | inhibition | cytopathic effect | 10 µg/mL | Human conjunctiva cells |  | 0% |
| C=CCc1ccc(O)c(OC)c1 | Candida albicans |  | culture | MIC90 | turbidity |  |  | 3178 | 495 µg/mL |

Repeating the first 2 entries:

smiles	species	target	test	measure	method	dose	cells	strain	value
Oc1ccc(O)c(C=Nc2ccccc2O)c1	Cryptococcus neoformans		culture	MIC	broth dilution			C-3-1	5.7 µg/mL
COc1ccccc1N1CCN(c2cncc(-c3ccc(C(C)(C)C)cc3)n2)CC1	Cytomegalovirus	UL97 kinase	target	IC50					<100 µM